Anti-infective test results gathered from many reports (values: NIAID ChemDB through PubChem).

Shared fields: tests in culture; agent: Aspergillus fumigatus; measure: MIC

Neighbouring rows are from separate reports.

| compound | strain | value |
|---|---|---|
| COc1ccc2nc(Oc3ccc(C)cc3)c(C3C(C#N)=C(N)Oc4c3c(=O)oc3ccc(C)cc43)cc2c1 | MTCC 3008 | 500 µg/mL |
| N#Cc1ccc2oc(=O)ccc2c1 | ATCC 16913 | 1000 µg/mL |
| Cc1ccc(Oc2nc3ccccc3cc2C2C(C#N)=C(N)OC3=C2C(=O)CC(C)(C)C3)cc1 | MTCC 3008 | 500 µg/mL |
| OC(Cn1cncn1)(Cn1cncn1)c1ccc(F)cc1F | NFI 4001 | >128 µg/mL |
| C(=C\c1ccccc1)/CN(Cc1cccc2ccccc12)n1ccnc1 | - | >200 µM |
| COc1cccc(/C=C/C(=O)c2ccc(Br)cc2)c1OC | ATCC 26934 | >50 µg/mL |
| Cc1ccc(Oc2nc3ccccc3cc2C2C(C#N)=C(N)Oc3c2c(=O)oc2ccccc32)cc1 | MTCC 3008 | 500 µg/mL |
| Cc1ccc2nc(Oc3ccccc3)c(C3C(C#N)=C(N)OC4=C3C(=O)CCC4)cc2c1 | MTCC 3008 | >1000 µg/mL |
| C=C1/C=C(\C)[C@H](CC)OC(=O)[C@H](C)C(=O)C(O)(CO)C/C(OC)=C/[C@@H](C)C1 | IAM2034 | >20 µg/mL |
| CCCCCCCCCCNC1CCc2ccc(OC)cc2C1 | - | >64 µM |
| O=C(O)c1ccc(/C=C/C(=O)c2ccc([N+](=O)[O-])cc2)cc1 | 3 clinical isolates | >32 µg/mL |
| CCCCCOc1ccc(-c2cc(-c3ccc(C(=O)N[C@H]4C[C@@H](O)[C@@H](O)NC(=O)[C@@H]5[C@@H](O)[C@@H](C)CN5C(=O)[C@H]([C@H](O)CC(N)=O)NC(=O)[C@H]([C@H](O)[C@@H](O)c5ccc(O)c(OS(=O)(=O)O)c5)NC(=O)[C@@H]5C[C@@H](O)CN5C(=O)[C@H]([C@@H](C)O)NC4=O)cc3)no2)cc1 | - | 0.015–0.03 µg/mL |
| O=C(O)c1ccc(/C=C/C(=O)c2ccc(Cl)cc2)cc1 | 3 clinical isolates | >32 µg/mL |
| N#CC1=C(N)Oc2c(c(=O)oc3ccccc23)C1c1cc2ccccc2nc1Oc1ccc(Cl)cc1 | MTCC 3008 | 500 µg/mL |
| CCN1CCN(Cc2ccccc2)CC1 | ITCC 4517 | 500 µg/mL |
| C[C@@H](c1nc(-c2ccc(C#N)cc2)cs1)[C@](O)(Cn1cncn1)c1cc(F)ccc1F | - | 0.06–4 µg/mL |
| COc1ccc(C(=O)/C=C/c2ccc(C(=O)N3C/C(=C\c4ccccc4)C(=O)/C(=C/c4ccccc4)C3)cc2)cc1 | 3 clinical isolates | >32 µg/mL |
| COc1ccc(C(=O)CC(c2cc3ccccc3nc2Cl)C(C#N)C#N)cc1OC | ATCC 26934 | >50 µg/mL |
| N[C@@H](Cc1ccc(N(CCCl)CCCl)cc1)C(=O)O | 3 clinical isolates | >32 µg/mL |
| Cc1ccc(Oc2nc3ccc(C)cc3cc2C2C(C#N)=C(N)Oc3c2c(=O)oc2ccc(C)cc32)cc1 | MTCC 3008 | 500 µg/mL |
| CC(C)(C)c1ccc(CN(Cc2cccc3ccccc23)n2cnnc2)cc1 | - | >200 µM |
| CCOP(=O)(OCC)C(F)(F)[C@@H]1[C@@H](O)[C@H](O)[C@H](CO)N1CCNC1[C@@H](CO)O[C@H](OC)[C@H](NC(C)=O)[C@H]1O | - | >128 µg/mL |
| COc1ccc(Oc2nc3ccc(C)cc3cc2C2C(C#N)=C(N)OC3=C2C(=O)CC(C)(C)C3)cc1 | MTCC 3008 | 250 µg/mL |
| COC(=O)C(C(=O)OC)C(CC(=O)c1ccccc1)c1cccc(OC)c1OC | ATCC 26934 | >50 µg/mL |
| COc1ccc(Oc2c(C3C(C#N)=C(N)OC4=C3C(=O)CCC4)c(C)nn2-c2ccccc2)cc1 | MTCC 3008 | 250 µg/mL |
| COc1ccc2nc(Oc3ccc(F)cc3)c(C3C(C#N)=C(N)OC4=C3C(=O)CCC4)cc2c1 | MTCC 3008 | 500 µg/mL |
| Cc1ccc2oc(=O)ccc2c1 | ATCC 16913 | 1000 µg/mL |
| CCCCCCCCOc1ccc(-c2ccc(C(=O)NC3CC(NCCN)CNC(=O)[C@@H]4[C@@H](O)[C@@H](C)CN4C(=O)[C@@H](CO)NC(=O)[C@H]([C@H](O)Cc4ccccc4)NC(=O)[C@@H]4C[C@@H](O)CN4C(=O)[C@H]([C@@H](C)O)NC3=O)cc2)cc1 | 50 isolates | 0.179 µg/mL |
| CCCCCCCCCNC1CCc2cc(O)ccc2C1 | - | 64 µM |
| O=C1/C(=C/c2ccccc2)CN(C(=O)/C=C/c2ccc3c(c2)OCO3)C/C1=C\c1ccccc1 | 3 clinical isolates | >32 µg/mL |
| CCCCCCCCCNC1CCc2ccc(OC)cc2C1 | - | 64 µM |
| CC(=O)Oc1ccc2ccc(=O)oc2c1 | ATCC 16913 | 500 µg/mL |
| CCN1CCN(c2ccccc2)CC1 | ITCC 4517 | 62.5 µg/mL |
| COc1cc(/C=C/C(=O)N2C/C(=C\c3ccccc3)C(=O)/C(=C/c3ccccc3)C2)cc(OC)c1OC | 3 clinical isolates | >32 µg/mL |
| Cc1ccc(Oc2c(C3C(C#N)=C(N)OC4=C3C(=O)CC(C)(C)C4)c(C)nn2-c2ccc(C)cc2)cc1 | MTCC 3008 | >1000 µg/mL |
| C[C@@H](c1ncncc1F)[C@](O)(Cn1cncn1)c1ccc(F)cc1F | - | 0.125–16 µg/mL |
| C[C@@H](c1ncncc1F)[C@](O)(Cn1cncn1)c1ccc(F)cc1F | NFI 0159 | 0.13 µg/mL |
| Cc1ccc2oc(=O)c3c(c2c1)OC(N)=C(C#N)C3c1cc2ccccc2nc1Oc1ccccc1 | MTCC 3008 | >1000 µg/mL |
| O=C1/C(=C/c2ccccc2)CN(C(=O)/C=C/c2ccccc2)C/C1=C\c1ccccc1 | 3 clinical isolates | >32 µg/mL |
| O=Cc1ccc2oc(=O)ccc2c1 | ATCC 16913 | 1000 µg/mL |
| CCCCCCCCNC1CCc2ccc(OC)cc2C1 | - | >64 µM |
| O=c1ccc2cc(O)c(O)cc2o1 | ATCC 16913 | 1000 µg/mL |
| Cc1ccc(-n2nc(C)c(C3C(C#N)=C(N)OC4=C3C(=O)CCC4)c2Oc2ccccc2)cc1 | MTCC 3008 | 500 µg/mL |
| O=c1ccc2ccc([N+](=O)[O-])cc2o1 | ATCC 16913 | 250 µg/mL |
| COc1ccc2nc(Oc3ccc(C)cc3)c(C3C(C#N)=C(N)OC4=C3C(=O)CCC4)cc2c1 | MTCC 3008 | 1000 µg/mL |

7 of the rows above, restated:

| compound | strain | value |
|---|---|---|
| O=C(O)c1ccc(/C=C/C(=O)c2ccc(Cl)cc2)cc1 | 3 clinical isolates | >32 µg/mL |
| Cc1ccc2oc(=O)ccc2c1 | ATCC 16913 | 1000 µg/mL |
| Cc1ccc(Oc2nc3ccccc3cc2C2C(C#N)=C(N)OC3=C2C(=O)CC(C)(C)C3)cc1 | MTCC 3008 | 500 µg/mL |
| N#Cc1ccc2oc(=O)ccc2c1 | ATCC 16913 | 1000 µg/mL |
| C[C@@H](c1ncncc1F)[C@](O)(Cn1cncn1)c1ccc(F)cc1F | NFI 0159 | 0.13 µg/mL |
| COc1ccc2nc(Oc3ccc(C)cc3)c(C3C(C#N)=C(N)OC4=C3C(=O)CCC4)cc2c1 | MTCC 3008 | 1000 µg/mL |
| N#CC1=C(N)Oc2c(c(=O)oc3ccccc23)C1c1cc2ccccc2nc1Oc1ccc(Cl)cc1 | MTCC 3008 | 500 µg/mL |

Blank or dashed fields: not listed here. a–b is a range or a potency band.